According to paper PMC8206078, “Identification of pyrogallol as a warhead in design of covalent inhibitors for the SARS-CoV-2 3CL protease” (Nature Communications, 2021):

What was measured:
[1] = biological target: SARS-CoV-2 3CLpro (Severe acute respiratory syndrome coronavirus 2, UniProt P0DTD1); test: FRET-based protease assay, SARS-CoV-2 3CLpro; assay type: biochemical; settings: for IC50: single independent experiment
[2] = system: SARS-CoV-2 replication in Vero E6 cells; test: Cell-based antiviral activity assay (qRT-PCR of viral copies in supernatant); settings: single independent experiment

Q: For CCOc1cc(O)c2c(=O)c(O)c(-c3cc(O)c(O)c(O)c3)oc2c1, which IC50 [1] is on record?
A: 0.67 µM and 0.79 µM and 0.77 µM

Q: And the EC50 [2]?
A: 47.6 µM and 42 µM and 60.1 µM

Q: CC(C)CCOc1cc(O)c2c(=O)c(O)c(-c3cc(O)c(O)c(O)c3)oc2c1 was tested. Which “inhibition ratio (%)” value ([1]; 50 µM, individual replicates of independent experiments) did it give?
A: 85.5333% and 82.1542%

Q: What about the IC50 [1] of the same molecule?
A: 2.1 µM and 1.84 µM and 1.81 µM

Q: And the EC50 [2]?
A: 33.5 µM and 32.1 µM and 31 µM

“And” between values parts separate entries of the source, which are not always exact repeats. Equal values may be shown once.
